For 1 molecule, log(1/C) results are on record in ChEMBL document CHEMBL3244068 (J Med Chem, 1978).

Experiment [1] has as its system P388. Briefly: Antitumor activity against mouse P388 cells allografted in mouse assessed as dose required to produce T/C of 180% administered for 18 days.
Experiment [2] has as its system P388. Briefly: Antitumor activity against mouse P388 cells allografted in mouse assessed as dose required to produce T/C of 125% administered for 18 days.

Molecules are shown by their SMILES.

`O=CCCCc1ccc(N(CCCl)CCCl)cc1`: the log(1/C) came out at 4.72 with P388 [1] and 5.96 in the experiment with P388 [2].
